# Measured values reported in publication PMC4222200 (Journal of immunology (Baltimore, Md. : 1950), 2010).
# System: 1G4 CTL clone
# Experiment: Intracellular Ca2+ measurements in 1G4 CTL clone
# Assay type: cell-based
substance,measurement,value
"influenza matrix58-66 peptide: influenza virus matrix 58–66 peptide: Ca2+/FACS negative control, positive control for A2 binding",Ca2+ response pattern,No significant Ca^2+ response
